Measured values from several laboratories, pooled; numbers as filed in NIAID ChemDB.

All rows: cytotoxicity tests; endpoint: CC50

a–b is a range or a potency band. An empty or dashed field is not shown. CCn is the concentration with n% toxicity to the cells. Lines come from different laboratories, so protocols vary.

smiles,cell line,read by,result
CCc1c(C(=O)Nc2ccc(F)c(C)c2)c(C)c(C(=O)C(=O)NCC(C)(C)O)n1C,HepG2,MTT,>30 µM
O=c1c(-c2ccccc2)c(O)c2cc(-c3ccccc3)cnc2n1O,HeLa,-,<100 µM
CC(CCC(=O)N[C@@H](Cc1ccc(O)cc1)C(=O)O)C1CCC2C3CCC4C[C@H](O)CCC4(C)C3C[C@H](O)C12C,VK2/E6E7,XTT,238.3 µg/mL
N#Cc1c(Cl)nsc1Cl,L929,-,4 µM
O=C(NCc1ccc(Cl)cc1)c1c[nH]c2ccc(CCCO)cc2c1=O,REF,-,>100 µM
C=C(C)[C@@H]1CCC2(C(=O)OC)CC[C@]3(C)C(CCC4[C@@](C)(CC#N)C(C(C)(C)C(=O)NCC(=O)OCC)CC[C@]43C)C12,RD TE32,MTT,70.5 µM
CCOC(=O)/C=C1\NCCc2cc3c(cc21)OCO3,HepG2,-,>20 µM
Oc1cc(Cl)ccc1Oc1ccc(NCc2ccccc2)cc1Cl,Human foreskin fibroblasts,fluorescence,>10 µM
COC(=O)N[C@H](C(=O)NC(C)(C)CN[C@@H]1CNC[C@H]1N(CCC(C)C)S(=O)(=O)c1ccc(N)cc1)C(c1ccccc1)c1ccccc1,T lymphoid cells,microscopy,>10 µM
Nc1nc2c(ncn2COCCO)c(=O)[nH]1,GPE,-,1200 µM
O=C(NCCCl)N1CC[N+]2(CC1)CC[N+]1(CCN(C(=O)NCCCl)CC1)CC2,K562,-,>90.4 µg/mL
CC(C)N(Cc1cccc(OCCCCCC(=O)OC(=O)O)c1)C(=O)c1ccc(-c2cccc(F)c2)cc1,RAJI,-,>20 µM
[O-][n+]1onc2c(N3CC[N+]4(CC3)CC[N+]3(CCN(c5ncnc6no[n+]([O-])c56)CC3)CC4)ncnc21,L929,-,>351.2 µg/mL
CC(C)N(Cc1cccc(OCCCCCC(=O)OC(=O)O)c1)C(=O)c1ccc(-c2ccco2)cc1,BJ,-,>20 µM
CSc1nsc(-c2ccc(OCCOc3ccc(C#N)cc3)cc2)c1C#N,HEP-2/L-929/VERO,-,2 µM
CSc1nsc(-c2c(Cl)cccc2Cl)c1C#N,HEP-2,-,5 µM
COc1cc(Nc2ncnc3ccc(-c4cccs4)cc23)ccc1N1CCOCC1,HUH 9B,-,>25 µM
CSc1nsc(-c2ccc(OCCCc3ccccc3)cc2)c1C#N,HEP-2/L-929/VERO,-,>20 µM
CCOC(=O)c1c(O)c2cc(Oc3ccc(N(CC)CC)cc3)cnc2n(O)c1=O,HeLa,-,<100 µM
CCOC(=O)[C@@]1(C)CC[C@]2(C)CC[C@]3(C)C(=CC(=O)[C@@H]4[C@@]5(C)CC/C(=N\OCc6ccc(C)cc6)C(C)(C)[C@@H]5CC[C@]43C)[C@@H]2C1,K562,MTT,53.89 µM
COC(=O)N[C@H](C(=O)NCCN[C@@H]1CNC[C@H]1N(CCC(C)C)S(=O)(=O)c1ccc(CO)cc1)C(c1ccccc1)c1ccccc1,T lymphoid cells,microscopy,>10 µM
CCOC(=O)[C@@]1(C)CC[C@]2(C)CC[C@]3(C)C(=CC(=O)[C@@H]4[C@@]5(C)CC/C(=N\OCc6ccccc6)C(C)(C)[C@@H]5CC[C@]43C)[C@@H]2C1,K562,MTT,12.25 µM
N#Cc1cc(CC(=O)c2ccccc2)c(=O)n2c1sc1ccccc12,HEF,-,200 µg/mL
CCCc1cc(=O)oc2cc(OC(=O)C(C)(C)C)c3c(c12)OC(C)(C)C=C3,CV-1,neutral red,2 µg/mL
CCCCOc1ccc(-c2snc(SC)c2C#N)cc1,HEP-2,-,>50 µM
Cc1ccc(CNC(=O)c2ccc3ncnc(Nc4ccc(N5CCOCC5)cc4)c3c2)cc1,HUH 9B,-,>25 µM
CCOC(=O)[C@@]1(C)CC[C@]2(C)CC[C@]3(C)C(=CC(=O)[C@@H]4[C@@]5(C)CC/C(=N\OCc6cccc(F)c6)C(C)(C)[C@@H]5CC[C@]43C)[C@@H]2C1,K562,MTT,15.32 µM
COC(=O)N[C@H](C(=O)NCCN[C@@H]1CNC[C@H]1N(C(C)C)S(=O)(=O)c1ccc(N)cc1)C(c1ccccc1)c1ccccc1,T lymphoid cells,microscopy,>10 µM
Cc1cc(NC(=O)c2c(C)c(C(=O)C(=O)NCC(C)(C)O)n(C)c2C(C)C)ccc1F,HepG2,MTT,>30 µM
CCOC(=O)c1ccc(OCCOc2ccc(-c3snc(SC)c3C#N)cc2)cc1,HEP-2/L-929/VERO,-,2 µM
CCCc1cc(=O)oc2c3c(c4c(c12)OC(C)(C)C=C4)O[C@H](C)[C@H](C)C3=O,CV-1,neutral red,14 µg/mL
COc1ncc(-c2ccc3ncnc(Nc4ccc(N5CCOCC5)cc4)c3c2)cn1,HUH 9B,-,>25 µM
CSc1nsc(-c2cccs2)c1C#N,L929,-,6 µM
COC(=O)N[C@H](C(=O)NC(C)CN[C@@H]1CNC[C@H]1N(CCC(C)C)S(=O)(=O)c1ccc(N)cc1)C(c1ccccc1)c1ccccc1,T lymphoid cells,microscopy,>10 µM
CCOC(=O)[C@@]1(C)CC[C@]2(C)CC[C@]3(C)C(=CC(=O)[C@@H]4[C@@]5(C)CC/C(=N\OCc6ccccc6F)C(C)(C)[C@@H]5CC[C@]43C)[C@@H]2C1,K562,MTT,20.67 µM
CSc1nsc(-c2ccc(OCCOc3ccccc3)cc2)c1C#N,HELA-OHIO,-,>50 µM
CN(C)C(=O)c1c(O)c2cccnc2n(O)c1=O,HeLa,-,<100 µM
CC(=O)Nc1ccc(-c2ccc3ncnc(Nc4ccc(N5CCOCC5)cc4)c3c2)cc1,HUH 9B,-,>25 µM
COC(=O)N[C@H](C(=O)NCCN[C@@H]1CNC[C@H]1N(CCC(C)C)S(=O)(=O)c1ccc(N)cc1)C(c1ccccc1)c1ccccc1,T lymphoid cells,microscopy,>10 µM
CCOC(=O)c1c(O)c2cc(-c3cccc(O)c3)cnc2n(O)c1=O,HeLa,-,0.05 µM
CCCc1cc(=O)oc2cc(O)c(C(=O)CC)c(O)c12,CV-1,-,7 µg/mL
N#Cc1cc(C(=O)O)c(=O)n2c1[nH]c1ccccc12,HEF,-,200 µg/mL
NCc1cccc(-c2ccc3c(c2)CN(c2cc(=O)n(O)c4ncccc24)CC3)c1,HeLa,-,<100 µM
c1nc(Nc2ccc(N3CCOCC3)cc2)c2cc(-c3ccc(CN4CCOCC4)o3)ccc2n1,HUH 9B,-,>25 µM
O=C(NCC1CCNC1)c1c(O)c2cccnc2n(O)c1=O,HeLa,-,<100 µM
CCOC(=O)CCCCCOc1cccc(CN(C(=O)c2ccc(-c3ccc(Cl)c(Cl)c3)cc2)C(C)C)c1,BJ,-,>20 µM
O=c1cc(-c2ccc3cc[nH]c3c2)c2cccnc2n1O,HeLa,-,<100 µM
CSc1nsc(-c2ccc(OCCc3ccccc3)cc2)c1C#N,HEP-2/L-929/VERO,-,>20 µM
CC(=O)C[C@H]1C[C@H]2[C@H]([C@@H]3c4[nH]c5ccccc5c4CCN13)[C@H](O)C13CC/C=C\CCCCN1CC21CC/C=C\CCCNC13,H-116,-,5 µg/mL
CCCc1cc(=O)oc2c(C(=O)CC)c(O)c(C(=O)CC)c(O)c12,CV-1,neutral red,100 µg/mL
Oc1cc(Cl)ccc1Oc1ccc(Cl)cc1CNCc1ccc2ccccc2c1,Human foreskin fibroblasts,fluorescence,>10 µM
COC(=O)N[C@H](C(=O)NCCC[C@@H]1CNC[C@H]1N(CCC(C)C)S(=O)(=O)c1ccc(N)cc1)C(c1ccccc1)c1ccccc1,T lymphoid cells,microscopy,>10 µM
CC(=O)c1cc(NC(=O)c2ccccc2)c(=O)n2c1[nH]c1ccccc12,HEF,-,40 µg/mL
CC(C)N(Cc1cccc(OCCCCCC(=O)OC(=O)O)c1)C(=O)c1ccc(-c2ccsc2)cc1,BJ,-,>20 µM
Cc1cc(NC(=O)c2c(C)c(C(=O)C(=O)NC3CCc4nnn(C)c4C3)n(C)c2C)ccc1F,HepG2,MTT,>30 µM
NN1CC[N+]2(CC1)CC[N+]1(CCN(N)CC1)CC2,GMK,-,207.1 µg/mL
CSc1nsc(-c2ccc(OCCCOc3ccc(C#N)cc3)cc2)c1C#N,HELA-OHIO,-,2 µM
Cc1cc(NC(=O)c2c(C)c(C(=O)C(=O)NC3(C)CC(O)C3)n(C)c2CC2CC2)ccc1F,HepG2,MTT,>30 µM
CCOC(=O)[C@@]1(C)CC[C@]2(C)CC[C@]3(C)C(=CC(=O)[C@@H]4[C@@]5(C)CC/C(=N\OCc6ccc(Cl)cc6)C(C)(C)[C@@H]5CC[C@]43C)[C@@H]2C1,K562,MTT,36.85 µM
CCCCCCCCCCCCCCOC(=O)NC(CCC(=O)O)(CCC(=O)O)CCC(=O)O,Huh7-SG1a H77,-,>42 µM
CC(C)N(Cc1cccc(OCCCCCC(=O)OC(=O)O)c1)C(=O)c1ccc(-c2cccc(O)c2)cc1,BJ,-,>20 µM
CCOC(=O)c1cc(CC(=O)c2ccccc2)c(=O)n2c1oc1ccccc12,HEF,-,40 µg/mL
N#Cc1csnc1-c1ccccc1,HEP-2,-,100 µM
CC[C@@H]1/C=C(\C)C[C@H](C)C[C@H](OC)[C@H]2O[C@@](O)(C(=O)C(=O)N3CCCC[C@H]3C(=O)O[C@H](/C(C)=C/[C@H]3CC[C@H](O)[C@H](OC)C3)[C@H](C)[C@@H](O)CC1=O)[C@H](C)C[C@@H]2OC,P815,-,40 µg/mL
O=C(CCCCCCCCc1ccccc1)c1c(O)cccc1O,NCI-H187,resazurin,18.05 µg/mL
Cc1cc(NC(=O)c2c(C)c(C(=O)C(=O)N[C@@H]3CC[C@H](O)C[C@@H]3F)n(C)c2C)ccc1F,HepG2,MTT,5–30 µM
CCOC(=O)c1cccc(NC(=O)c2ccc3ncnc(Nc4ccc(N5CCOCC5)cc4)c3c2)c1,HUH 9B,-,>25 µM
Cc1cc(NC(=O)c2c(C)c(C(=O)C(=O)NC3CCC(S(C)(=O)=O)CC3)n(C)c2C2CCCC2)ccc1F,HepG2,MTT,5–30 µM
N#Cc1c(Cl)ccc(Oc2ccc(Cl)cc2Cl)c1O,Human foreskin fibroblasts,fluorescence,>10 µM
CCOC(=O)c1cnc(SC)nc1N1CC[N+]2(CC1)CC[N+]1(CCN(c3nc(SC)ncc3C(=O)OCC)CC1)CC2,L929,-,>72.5 µg/mL
Cc1c(C(=O)Nc2ccc(F)c(C#N)c2)c(C)n(C)c1C(=O)C(=O)Nc1ccc(B(O)O)cc1,HepG2,MTT,>30 µM
CCCCCCCCCCCC(=O)c1c(O)cc(O)cc1O,BC,resazurin,9.04 µg/mL
Cc1cc(NC(=O)c2c(C)c(C(=O)C(=O)NCC(C)(C)O)n(C)c2C2CCCC2)ccc1F,HepG2,MTT,>30 µM
Cc1cc(=O)[nH]c2c1ccc1ncc(C(=O)O)c(C)c12,CAKI-1,-,11 µg/mL
O=c1cc(-c2ccc3ccccc3c2)c2cccnc2n1O,HeLa,-,<100 µM
CSc1nsc(-c2ccc(OCCCOc3ccc([N+](=O)[O-])cc3)cc2)c1C#N,HELA-OHIO,-,1 µM
Oc1cc(Cl)ccc1Oc1ccc(Cl)cc1CNCc1ccc(-c2ccccc2)cc1,Human foreskin fibroblasts,fluorescence,>10 µM

The first 11 rows once more:

smiles,cell line,read by,result
CCc1c(C(=O)Nc2ccc(F)c(C)c2)c(C)c(C(=O)C(=O)NCC(C)(C)O)n1C,HepG2,MTT,>30 µM
O=c1c(-c2ccccc2)c(O)c2cc(-c3ccccc3)cnc2n1O,HeLa,-,<100 µM
CC(CCC(=O)N[C@@H](Cc1ccc(O)cc1)C(=O)O)C1CCC2C3CCC4C[C@H](O)CCC4(C)C3C[C@H](O)C12C,VK2/E6E7,XTT,238.3 µg/mL
N#Cc1c(Cl)nsc1Cl,L929,-,4 µM
O=C(NCc1ccc(Cl)cc1)c1c[nH]c2ccc(CCCO)cc2c1=O,REF,-,>100 µM
C=C(C)[C@@H]1CCC2(C(=O)OC)CC[C@]3(C)C(CCC4[C@@](C)(CC#N)C(C(C)(C)C(=O)NCC(=O)OCC)CC[C@]43C)C12,RD TE32,MTT,70.5 µM
CCOC(=O)/C=C1\NCCc2cc3c(cc21)OCO3,HepG2,-,>20 µM
Oc1cc(Cl)ccc1Oc1ccc(NCc2ccccc2)cc1Cl,Human foreskin fibroblasts,fluorescence,>10 µM
COC(=O)N[C@H](C(=O)NC(C)(C)CN[C@@H]1CNC[C@H]1N(CCC(C)C)S(=O)(=O)c1ccc(N)cc1)C(c1ccccc1)c1ccccc1,T lymphoid cells,microscopy,>10 µM
Nc1nc2c(ncn2COCCO)c(=O)[nH]1,GPE,-,1200 µM
O=C(NCCCl)N1CC[N+]2(CC1)CC[N+]1(CCN(C(=O)NCCCl)CC1)CC2,K562,-,>90.4 µg/mL